Anti-infective test results gathered from many reports (values: NIAID ChemDB through PubChem).

All rows: tests in culture; agent: HIV-1; read-out: fold resistance

Conditions beyond the fields shown may differ between rows.

smiles	method	conditions	cell line	strain or isolate	mutations	value
Cc1cn([C@H]2C[C@H](N=[N+]=[N-])[C@@H](CO)O2)c(=O)[nH]c1=O	cytopathic effect / XTT		CEM + CEM-SS	IIIB	RT-V90I T139I P225S	0.2
O=c1[nH]cnc2c1ncn2[C@H]1CC[C@@H](CO)O1	cytopathic effect / MTT		MT-4	IIIB	RT-M184V	4
CC(C)=CCN1Cc2cccc3[nH]c(=S)n(c23)C[C@@H]1C	syncytia		CEM	IIIB TIBO R82150-resistant (RT L100I)	RT-L100I	≥250
Cc1cc(Cl)cc(S(=O)(=O)c2cccc(N)c2C#N)c1	β-galactosidase		HeLa + HELA CD4+		RT-V106A Y181C	8.56
CC(C)=CCOc1cc(NC(=S)c2ccoc2C)ccc1Cl	cytopathic effect		CEM	D-3 (RT-V108I M184I)	RT-V108I M184I	2
Cc1cn([C@H]2C[C@H](N=[N+]=[N-])[C@@H](CO)O2)c(=O)[nH]c1=O	p24		MT-2	NL4-3	RT-A360T	1.17
Cc1cn([C@H]2C[C@H](N=[N+]=[N-])[C@@H](CO)O2)c(=O)[nH]c1=O	syncytia		CEM	IIIB-TIBO(0.5)(RT-L100I)	RT-L100I	1.33
CC(C)Nc1cccnc1N1CCN(C(=O)c2cc3cc(NS(C)(=O)=O)ccc3[nH]2)CC1	p24		H9	B8 (RT K101I K103N Y181C G190A)	RT-K101I K103N Y181C G190A	>55.6
Cc1cn([C@H]2C[C@H](N=[N+]=[N-])[C@@H](CO)O2)c(=O)[nH]c1=O	cytopathic effect / XTT		CEM + CEM-SS	IIIB(DPS-R(III))	RT-Y181C	1.1
Cn1c2ccccc2c2c1cc(C#N)c(=O)n2-c1ccc([N+](=O)[O-])cc1	luciferase		HeLa	NRTI resistant	RT-M41L D67N T69N K70R T215F K219E	0.7
CC(C)=CCN1Cc2cc(Cl)cc3[nH]c(=S)n(c23)C[C@@H]1C	syncytia		CEM	IIIB-Pyridinone(0.1)(RT-V179N	RT-V179N	157
Cc1ccnc2c1NC(=O)c1cccnc1N2C1CC1	cytopathic effect		CEM	E-2 (RT-V106A)	RT-V106A	55
C1=Nc2ccccc2SN1	cytopathic effect / XTT		CEM + CEM-SS	IIIB	RT-Y181C	>22
Cc1cc(O)cc(S(=O)(=O)c2cccc(N)c2C#N)c1	β-galactosidase		HeLa + HELA CD4+		RT-Y188C	6.35
N#Cc1cc2[nH]c3ccccc3c2n(-c2ccc([N+](=O)[O-])cc2)c1=O	luciferase		HeLa	Recombinant	RT-V118I M184V	3.3
CCOCn1c(Cc2ccccc2)c(CC)c(=O)[nH]c1=O	syncytia		CEM	IIIB E-EBU(RT-Y181C)	RT-Y181C	≥5000
CCn1c(=O)c(C)cn([C@@H]2O[C@H](CO[Si](C)(C)C(C)(C)C)C3(OS(=O)(=O)C=C3N)[C@H]2O[Si](C)(C)C(C)(C)C)c1=O	syncytia		CEM	IIIB TIBO R82150-resistant (RT L100I)	RT-L100I	3
Cc1c(Sc2ccccc2)n(COCCO)c(=O)[nH]c1=O	syncytia		CEM	IIIB E-EBU(RT-Y181C)	RT-Y181C	>13.3
Nc1ccn([C@H]2CC[C@@H](CO)O2)c(=O)n1	p24		MT-2	L74V(RT-L74V)	RT-L74V	3.3
Nc1ccn([C@H]2CC[C@@H](CO)O2)c(=O)n1		clinical isolate	MT-4	Clinical isolate	ddI-resistant	1.125
O=c1[nH]cnc2c1ncn2[C@H]1CC[C@@H](CO)O1	plaque count		CD4+HELA + HeLa	HXB2	RT-L74V	6
Nc1ncnc2c1ncn2CCOCP(=O)(O)O	syncytia		CEM	IIIB-TSAO-m3T(10)(RT-Y181C)	RT-Y181C	0.857
CCOCn1c(Sc2ccccc2)c(CC)c(=O)[nH]c1=O	syncytia		CEM	IIIB HEPT-resistant (RT Y188H)	RT-Y188H	≥4000
Cc1cn([C@H]2C[C@H](N=[N+]=[N-])[C@@H](CO)O2)c(=O)[nH]c1=O			PBMC	BCF07	RT-A98G V106I Y181C	1
Cc1cn([C@H]2C[C@H](N=[N+]=[N-])[C@@H](CO)O2)c(=O)[nH]c1=O	cytopathic effect / XTT		CEM + CEM-SS	Calanolide-resistant (RT T139I)	RT-T139I	2
CC(C)(C)NC(=O)[C@@H]1C[C@@H]2CCCC[C@@H]2CN1C[C@@H](O)[C@H](Cc1ccccc1)NC(=O)[C@H](CC(N)=O)NC(=O)c1ccc2ccccc2n1	p24		MT-4	NL4-3	PR-L63P V82T I84V	2
Nc1nc2c(ncn2[C@H]2CO[C@@H](CO)O2)c(=O)[nH]1				RT M41L 74V 184V 210W 215Y 181C 190A	RT-M41L L74V Y181C M184V G190A L210W T215Y	3.2
Nc1nc2c(ncn2[C@H]2CC[C@@H](CO)O2)c(=O)[nH]1	syncytia		CEM	IIIB TIBO R82913 STR-B22 (RT L100I Y188H)	RT-L100I Y188H	2
Nc1ncnc2c1ncn2[C@@H]1O[C@H](CO)C[C@@H]1F	p24		MT-2	RT A62V/V75I/F77L/F116Y/Q151M	RT-A62V V75I F77L F116Y Q151M	2.4
Cc1cn([C@H]2C[C@H](N=[N+]=[N-])[C@@H](CO)O2)c(=O)[nH]c1=O	p24		PBMC	Recombinant	RT-Q151M	0.02
CC1=C(C(=O)Nc2ccc(Cl)c(C(=O)OC(C)C)c2)SCCO1	cytopathic effect / XTT		CEM + CEM-SS	IIIB(OC-R(I))	RT-L100I	>333
O=c1[nH]cnc2c1ncn2[C@H]1CC[C@@H](CO)O1	p24		PBMC	Recombinant	RT-A62V	0.15
c1ccc2c(c1)sc1nccn12	cytopathic effect / XTT		CEM + CEM-SS	IIIB(OC-R(I))	RT-L100I	>200
O=c1[nH]cnc2c1ncn2[C@H]1CC[C@@H](CO)O1				RT-62V 69[SS] 70R 215Y	RT A62V T69SS insertion K70R T215Y	1.2
Cc1cn([C@H]2C[C@H](N=[N+]=[N-])[C@@H](CO)O2)c(=O)[nH]c1=O	luciferase		HeLa	Recombinant	RT-M41L V118I M184V	0.4
CC(C)=CCN1c2cc(Cl)cc3[nH]c(=S)n(c23)C[C@@H]1C			MT-4		RT-M41L T215Y K103N	8
Nc1nc(=O)n([C@@H]2CS[C@H](CO)O2)cc1F					RT-M41L D67N M184V L210W T215Y	~20
CC(C)=CCN1Cc2cccc3[nH]c(=S)n(c23)C[C@@H]1C	cytopathic effect / XTT		CEM + CEM-SS	IIIB(OC-R(I))	RT-L100I	>1000
Cc1ccnc2c1NC(=O)c1cccnc1N2C1CC1	plaque count		HT4 + HT4 LacZ-1	RTMC (RT-Y181C)	RT-D67N K70R Y181C T215Y K219Q	93.3
C#C[C@@]1(CO)C=C[C@H](n2cc(C)c(=O)[nH]c2=O)O1	β-galactosidase		MAGI (CCR5) + MAGI	HXB2	RT-M184V	11.3
C[C@H](Cn1cnc2c(N)ncnc21)OCP(=O)(O)O	p24		MT-2	P18 FDDA-resistant RT P119S V179D L214F	RT-P119S V179D L214F	0.565
Cc1cn([C@H]2C[C@H](N=[N+]=[N-])[C@@H](CO)O2)c(=O)[nH]c1=O	p24		MT-2	L214F(RT-L214F)	RT-L214F	0.7
Cc1cn([C@H]2C[C@H](N=[N+]=[N-])[C@@H](CO)O2)c(=O)[nH]c1=O	MTT		MT-4		F227L V106A	0.2
CCOCn1c(Cc2cc(C)cc(C)c2)c(CC)c(=O)[nH]c1=O	syncytia		CEM	IIIB HEPT-resistant (RT Y188H)	RT-Y188H	217
Nc1ccn([C@H]2CC[C@@H](CO)O2)c(=O)n1	cytopathic effect		MT-4	DI-06.92 (HXB2 RT-K70R)	RT-K70R	1.64
Cc1ccnc2c1NC(=O)c1cccnc1N2C1CC1	cytopathic effect / XTT		CEM + CEM-SS	CALO(RT-T139I)	RT-T139I	1
CC(C)CN(C[C@@H](O)[C@H](Cc1ccccc1)NC(=O)[C@H](CC(N)=O)NC(=O)c1ccc2ccccc2n1)C(=O)NC(C)(C)C	p24		MT-4	NL4-3	PR-M46I L63P V82T	2
Nc1nc2c(ncn2[C@H]2CO[C@@H](CO)O2)c(=O)[nH]1					RT-T69N K70R Q151M T215Y	~3.5
Nc1ccn([C@H]2CC[C@@H](CO)O2)c(=O)n1			PBMC	BCF03	RT-A98G Y181C	0.8
Cc1cc(Br)cc(S(=O)(=O)c2cccc(N)c2C#N)c1	β-galactosidase		HeLa + HELA CD4+		RT-G190A	2.73
Nc1ncnc2c1ncn2CC(CF)OCP(=O)(O)O	syncytia		CEM	IIIB TIBO R82913 STR-B02 (RT L100I E138K)	RT-L100I E138K	1.33
Cc1cn([C@H]2C=C[C@@H](CO)O2)c(=O)[nH]c1=O	cytopathic effect		MT-4	LZ-07.96 (HXB2 RT T69N L74I Q151M M184V)	RT-T69N L74I Q151M M184V	19.08
COc1ccc2c(c1)N(C(=O)OC(C)C)[C@@H](CSC)C(=S)N2	p24		H9	B8 (RT K101I K103N Y181C G190A)	RT-K101I K103N Y181C G190A	>1430
Nc1ccn([C@H]2CC[C@@H](CO)O2)c(=O)n1	p24		MT-4	HXB2-D (RT K65R M184V)	RT-K65R M184V	12.9
COc1cc(C(F)(F)F)cc(S(=O)(=O)c2cccc(N)c2C#N)c1	β-galactosidase		HeLa + HELA CD4+		RT-K103N Y181C	>3570
Nc1nc(=O)n([C@@H]2CS[C@H](CO)O2)cc1F	cytopathic effect / XTT		MT-2	Site-directed mutant	RT-K65R	11
Nc1ccn([C@H]2CC[C@@H](CO)O2)c(=O)n1	cytopathic effect / MTT		MT-4	RF	RT-M184I	1
O=c1[nH]cnc2c1ncn2[C@H]1CC[C@@H](CO)O1	p24		MT-4	126 3TC (RT-M184V)	RT-M184V	3.73
O=c1[nH]cnc2c1ncn2[C@H]1CC[C@@H](CO)O1	p24		MT-2	T215Y(RT-T215Y)	RT-T215Y	1.8
CC(C)=CCN1Cc2cc(Cl)cc3[nH]c(=S)n(c23)C[C@@H]1C			PBMC	BCF07	RT-A98G V106I Y181C	>312.5
CC(C)Nc1cccnc1N1CCN(C(=O)c2cc3cc(NS(C)(=O)=O)ccc3[nH]2)CC1	cytopathic effect		MT-4	AJ-05.93 (HXB2(RT-L74V))	RT-L74V	7.2
Cc1cn([C@@H]2O[C@H](CO[Si](C)(C)C(C)(C)C)[C@@]3(OS(=O)(=O)C=C3N)[C@H]2O[Si](C)(C)C(C)(C)C)c(=O)[nH]c1=O	syncytia		CEM	IIIB TIBO R82913 STR-2 (RT K103N)	RT-K103N	6.67
Cc1cn([C@H]2C[C@H](N=[N+]=[N-])[C@@H](CO)O2)c(=O)[nH]c1=O	cytopathic effect / XTT		MT-2	Site-directed mutant	RT-K65R Y115F	1.4
O=c1[nH]cnc2c1ncn2[C@H]1CC[C@@H](CO)O1	RT activity		MT-4	HXB2-D184 (RT-M184V)	RT-M184V	5.1
Cc1cc(C#N)cc(C)c1Oc1nc(Nc2ccc(C#N)cc2)ncc1SCC(=O)N1CCSCC1	MTT		MT-4		E138K	1.2
O=c1[nH]cnc2c1ncn2[C@H]1CC[C@@H](CO)O1	syncytia		CEM	IIIB-Nevirapine(1.0)(RT-Y181C)	RT-Y181C	4
CCc1c(Sc2ccccn2)n(COCc2ccccc2)c(=O)[nH]c1=O	cytopathic effect / XTT		CEM + CEM-SS	NL4-3	RT-L100I	1.5
CCOCn1c(Cc2ccccc2)c(C(C)C)c(=O)[nH]c1=O	cytopathic effect		CEM	D-3 (RT-V108I M184I)	RT-V108I M184I	5
CCCN(C)C(=O)Oc1nsnc1-c1c(Cl)ccc(N)c1Cl	MTT		MAGI	IIIB	RT-T240I	10
Cc1ccnc2c1NC(=O)c1cccnc1N2C1CC1	XTT		CEM + CEM-SS	NL4-3	RT-L74V	1
Fc1cccc(F)c1C1SCc2nc3ccccc3n21	cytopathic effect		CEM		RT-E138K	1.24
Fc1cccc(F)c1C1SCc2nc3ccccc3n21	XTT		CEM + CEM-SS	Costatolide-resistant (RT L100I T139I)	RT-L100I T139I	>27.6
Nc1ccn([C@H]2CC[C@@H](CO)O2)c(=O)n1	plaque count		CD4+HELA + HeLa	HXB2	RT-T215Y	1.43
CCc1c(C(=O)c2cc(C)cc(C)c2)n(CC2CC=CC2)c(=O)[nH]c1=O	cytopathic effect / XTT		CEM + CEM-SS	NL4-3	RT-L100I	0.1
Cc1cn([C@H]2C[C@H](N=[N+]=[N-])[C@@H](CO)O2)c(=O)[nH]c1=O	XTT		CEM + CEM-SS	NL4-3(RT-4XAZT+Y181C)	RT-D67N K70R Y181C T215Y K219Q	40
O=c1[nH]cnc2c1ncn2[C@H]1CC[C@@H](CO)O1	plaque count		HELA-CD4+	JF138M1 (RT M41L D67N T69D L210W T215Y) Chimeric clone	RT-M41L D67N T69D L210W T215Y	1.17
Cc1ccnc2c1NC(=O)c1cccnc1N2C1CC1	β-galactosidase		MAGI (CCR5) + MAGI	NL4-3	RT-M184V	1.08
CC(C)=CCN1Cc2cc(Cl)cc3[nH]c(=S)n(c23)C[C@@H]1C	syncytia		CEM	IIIB E-EBU(RT-Y181C)	RT-Y181C	≥250

Fold resistance has wild type as its base. An empty or dashed field is not shown.